Assay results: publication PMC3006222, “Cholera Toxin B Subunits Assemble into Pentamers - Proposition of a Fly-Casting Mechanism” (2010)

Assays:
[1] = target: Cholera toxin B subunit (CtxB) (UniProt P01556)
[2] = target: Cholera toxin B subunit (CtxB) (UniProt P01556); settings: cited from earlier work
[3] = target: Cholera toxin B subunit (CtxB) (UniProt P01556); settings: cited from earlier work; remark: listed apart in the source
[4] = target: Cholera toxin B subunit (CtxB) (UniProt P01556); remark: listed apart in the source

Cholera toxin B subunit (CtxB)
half-time of reassembly (Trp-88 fluorescence increase) against pH [1]: 6 pH
mid-point pH of reassembly yield (GM1-binding oligomers, 35 uM, 30 min) [1]: mid-point pH of about 5.2 at 35 uM (against about 6.0 at 8.6 uM)
yield of reassembly into GM1-binding species after 30 min at 8.6 uM [1]: only 45%
yield of reassembly into GM1-binding species after 30 min at 35 uM [1]: about 75%
threshold pH for acid disassembly of the pentamer [2]: 3.7 pH
association rate (kon) of CtxB subunits [3]: 3000 M⁻¹ s⁻¹
mid-point pH of reassembly yield (GM1-binding oligomers, 8.6 uM, 30 min) [4]: inflexion point around pH 6.0; yield increases sigmoidally with increasing pH
